Results on 1 molecule are retold here after patent US20190359693A1, “Binding molecules directed against influenza hemagglutinin and uses thereof” (Janssen / Centocor, published 2019).

Experiment [1] concerns the target HA of B/Brisbane/60/2008 (Victoria) (influenza B virus). As to the kind of experiment: BLI steady state.
For experiment [2] the target is unchanged. As to the kind of experiment: cell-based or functional assay.
Experiment [3] deals with HA of B/Florida/04/2006 (Yamagata) (influenza B virus). As to the kind of experiment: cell-based or functional assay.
Experiment [4] addresses HA of B/Brisbane/60/2008 (Victoria) (influenza B virus). As to the kind of experiment: cell-based or functional assay. The source holds these as a separate data set.
Experiment [5] addresses HA of B/Florida/04/2006 (Yamagata) (influenza B virus). As to the kind of experiment: cell-based or functional assay. The source holds these as a separate data set.
In experiment [6] the target is HA of H3N2 A/Brisbane/10/2007 (influenza A virus). As to the kind of experiment: AlphaLISA competition vs SD1038.
Experiment [7] has as its target HA of B/Florida/04/2006 (Yamagata) (influenza B virus). As to the kind of experiment: AlphaLISA competition vs CR8033.
Experiment [8] has as its target HA of B/Brisbane/60/2008 (Victoria) (influenza B virus). As to the kind of experiment: AlphaLISA competition vs CR8071. (Bead proximity is the source of the signal in Alpha formats.)
For experiment [9], the target named is HA of B/Florida/04/2006 (Yamagata) (influenza B virus). As to the kind of experiment: AlphaLISA competition vs CR8071.
The target in experiment [10] is HA of B/Brisbane/60/2008 (Victoria) (influenza B virus). As to the kind of experiment: AlphaLISA competition vs CR9114.
In experiment [11] the target is HA of B/Florida/04/2006 (Yamagata) (influenza B virus). As to the kind of experiment: AlphaLISA competition vs CR9114.
Experiment [12] has as its target HA of B/Brisbane/60/2008 (Victoria) (influenza B virus). As to the kind of experiment: AlphaLISA competition vs SD1083.
The target of experiment [13] is HA of B/Florida/04/2006 (Yamagata) (influenza B virus). As to the kind of experiment: AlphaLISA competition vs SD1083.
Experiment [14] concerns the target HA of B/Brisbane/60/2008 (Victoria) (influenza B virus). As to the kind of experiment: AlphaLISA competition vs SD1084.
Experiment [15] has as its target HA of B/Florida/04/2006 (Yamagata) (influenza B virus). As to the kind of experiment: AlphaLISA competition vs SD1084.
Experiment [16] addresses HA of B/Brisbane/60/2008 (Victoria) (influenza B virus). As to the kind of experiment: AlphaLISA competition vs SD1085.
In experiment [17] the target is HA of B/Florida/04/2006 (Yamagata) (influenza B virus). As to the kind of experiment: AlphaLISA competition vs SD1085.
In experiment [18] the target is HA of B/Brisbane/60/2008 (Victoria) (influenza B virus). As to the kind of experiment: AlphaLISA competition vs SD1086.
Experiment [19] concerns the target HA of B/Florida/04/2006 (Yamagata) (influenza B virus). As to the kind of experiment: AlphaLISA competition vs SD1086.
Experiment [20] has as its target HA of B/Brisbane/60/2008 (Victoria) (influenza B virus). As to the kind of experiment: AlphaLISA competition vs SD1087.
For experiment [21], the target named is HA of B/Florida/04/2006 (Yamagata) (influenza B virus). As to the kind of experiment: AlphaLISA competition vs SD1087.

The term Kd denotes the free concentration of one partner at which half of the binding sites on the other are occupied at equilibrium, for simple one-to-one binding. A higher Kd goes with weaker binding. The pIC50 is the IC50 on a negative log10 scale, so that one unit is a factor of ten.

B1: SD1083 (VHH)
VHH: EVQLVESGGGLVQPGGSLRLSCAATGFTLENKAIGWFRQTPGSEREGVLCISKSGSWTYYTDSMRGRFTISRDNAENTVYLQMDSLKPEDTAVYYCATTTAGGGLCWDGTTFSRLASSWGQGTQVTVSS
notes: llama sdAb
B1 had a Kd in experiment [1] of 3 nM. For the same molecule, the values for the VNA titer in experiment [2] and in experiment [3] were 178 nM and 220 nM, respectively. The hemagglutination inhibition titer in experiment [4] and in [5] was greater than 50 µg/mL each time. The pIC50 is less than 7 in experiment [6]; less than 7 in experiment [7]; less than 7 in experiment [8]; less than 7 in [9]; 9.4 in experiment [10]; 9.3 in experiment [11]. In addition, the pIC50 in experiment [12] was 8.9; in experiment [13], 9; in [14] it was less than 7; in experiment [15] it was less than 7; in [16], 8.7; in experiment [17], 8.9. For the same molecule, the pIC50 came to 9.1 in experiment [18], 9.2 in experiment [19], 9 in experiment [20] and 9.1 in experiment [21].
